Literature values in patent US10258634B2, “Ciclesonide for the treatment of airway disease in horses” (Boehringer Ingelheim Vetmedica GmbH, priority 2012, dated 2019).

Assays:
[1] = system: humans; details: aerosol administration, some studies (Grahnén et al., 1997); cited from earlier work
[2] = system: horses; details: aerosol administration, some studies (Robinson et al., 2009); cited from earlier work

fluticasone proprionate
measured cortisol levels [1]: significant suppression | measured cortisol levels [2]: significant suppression
